Measurements reported in PubChem BioAssay AID1224833 (University of Georgia, 2016)
In all, the deposit lists about 12,000 reagents; this is an unselected part. In the full data, about 5,600 (46%) got an active call. 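Active calls cover z-scores past 1 in both directions, so they include lowered as well as raised rotavirus replication.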

- Test: 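Host factors restraining rotavirus as candidate antiviral genes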 (primary screen)
- Cells: monkey MA104 kidney cells
- Reagents: siRNA pool against human genes, 50 nM
- Timing: 48 h knock-down before infection; read 24 h after infection
- Treatment: infection with rotavirus strain RV3 two days after transfection; infectious dose for this stage not given
- Measured: 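z-score of rotavirus antigen signal per well, from a fluorescent immunoassay, relative to non-targeting control wells on the same plate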
- Direction: z-score vs non-targeting control: higher = more rotavirus replication than with non-targeting control
- Call rule: In these data the active calls have z-score vs non-targeting control at about -1 or lower, or at about 1 or higher
- Calls: active = z-score beyond 1 either way; inactive = z-score within 1 of zero

target gene	z-score vs non-targeting control	Outcome
ELOA	-2	active
IL32	-1.53	active
SLC39A10	-0.921	inactive
C1D	0.0389	inactive
KRABD5	-1.84	active
LTF	2.98	active
FEZF1	-1.63	active
ONECUT1	1.84	active
ZNF580	-1.34	active
TDRD3	-1.42	active
IL22RA1	1.02	active
DCTN4	0.726	inactive
IL33	-1.33	active
PRAM1	0.342	inactive
MICOS10	-0.581	inactive
GSTA5	-1.2	active
SLC8A3	-1.71	active
DENND4A	0.157	inactive
POTEA	0.24	inactive
NLRP10	-1.71	active
USF3	-0.215	inactive
KLHL27	0.444	inactive
TATDN3	-0.769	inactive
IPO11	0.646	inactive
CYTIP	-1.79	active
ALG5	1.55	active
CCDC12	-2.56	active
KCMF1	-1.45	active
MRPS5	1.13	active
VAMP8	-0.236	inactive
CRYGB	-1.07	active
SPATA1	-1.24	active
ZNF695	0.469	inactive
HBM	-1.82	active
CLTC	0.417	inactive
EMID1	0.112	inactive
SRP19	-0.522	inactive
DPPA2	1.18	active
UTF1	-1.61	active
CCNI	-1.04	active
ZNF407	-0.59	inactive
LAMC3	-6.19	active
IL12RB1	1.22	active
WNT16	1.23	active
ISCA2	-0.353	inactive

Reformatted: entries from further up
| target gene | z-score vs non-targeting control | Outcome |
| --- | --- | --- |
| SLC39A10 | -0.921 | inactive |
| C1D | 0.0389 | inactive |
| KRABD5 | -1.84 | active |
| LTF | 2.98 | active |
| FEZF1 | -1.63 | active |
| ONECUT1 | 1.84 | active |
